Anti-infective test results gathered from many reports (values: NIAID ChemDB through PubChem).

Common to all: cytotoxicity tests; endpoint: CC50

CCn: concentration that lowers growth or viability of the cells by n%.

| compound | cells | read by | result |
|---|---|---|---|
| O=C(COCC(=O)N/N=C/c1ccccc1OCc1ccccc1)N/N=C/c1ccccc1OCc1ccccc1 | RAW 264.7 | MTT | 9.2 µM |
| Cc1cn([C@H]2CC[C@@H](CO)O2)c(=O)n(NO)c1=O | P3HR-1 | - | >100 µg/mL |
| O=C(COCC(=O)N/N=C/c1cccc(OCc2ccccc2)c1)N/N=C/c1cccc(OCc2ccccc2)c1 | RAW 264.7 | MTT | 26.24 µM |
| CCCCCCCCCCCCCCCCOP(=O)([O-])OCCC[N+](C)(C)Cc1ccccc1 | MDA | MTT | 43.7 µM |
| O=C(/C=C/c1ccccc1)[Se]c1ccccc1 | HLE | WST | 72.9 µM |
| Cc1cn([C@H]2C[C@H](N=[N+]=[N-])[C@@H](CO)O2)c(=O)[nH]c1=O | PBM | - | >100 µM |
| O=C(NC1N=C(c2ccccc2)c2ccc(Cl)cc2NC1=O)C1CCCCC1 | HEP-2 | - | 5 µM |
| Nc1nc(NC2CC2)c2ncn([C@H]3C=C[C@@H](CO)C3)c2n1 | Li-7 | WST | >100 µM |
| Cc1cn([C@H]2O[C@@H](CO)C[C@H]2F)c(=O)nc1N | PBM | - | >100 µM |
| C[C@H](Cn1cnc2c(N)nc(N)nc21)OCP(=O)(O)O | P3HR-1 | - | 160 µg/mL |
| COc1cc(OC)n2sc(=NC(=O)COc3ccc(Cl)cc3Cl)nc2n1 | MDCK | MTS | >300 µM |
| Cc1nc(N2CCC[N+]3(CC2)CC[N+]2(CCCN(c4nc(C)nc5c4no[n+]5[O-])CC2)CC3)c2c(no[n+]2[O-])n1 | GMK | - | >291.4 µg/mL |
| COc1cc(OC)nc(NC(=S)NC(=O)c2ccc(-c3ccccc3Cl)o2)n1 | MDCK | MTS | >300 µM |
| Cc1c2ccncc2c(C)c2c1[nH]c1ccccc12 | BC | - | 0.3 µg/mL |
| CC(C)(C)NC(=O)NC(=S)NC(=O)c1ccccc1 | MDCK | MTS | >300 µM |
| CO[C@H]1/C=C/O[C@@]2(C)Oc3c(C)c(O)c4c(O)c(c(/C=N/N5CCN(C)CC5)c(O)c4c3C2=O)NC(=O)/C(C)=C\C=C\[C@H](C)[C@H](O)[C@@H](C)[C@@H](O)[C@@H](C)[C@H](OC(C)=O)[C@@H]1C | HCT116 | MTT | >100 µg/mL |
| OCCc1ccc(O)c(O[C@@H]2O[C@H](CO)[C@@H](O)[C@H](O)[C@H]2O)c1 | MDA-MB-231 | MTT | 4.78 µM |
| Nc1nc(NC2CC2)cc(OCCOCP(=O)(O)O)n1 | CCRF-CEM | - | <10 µM |
| CCCCCCCCCCCCCCCCOP(=O)([O-])OCCC[n+]1ccccc1 | HUVEC | MTT | >100 µM |
| O=C(COCC(=O)N/N=C/c1ccc(F)cc1)N/N=C/c1ccc(F)cc1 | RAW 264.7 | MTT | 25.57 µM |
| COc1cc(CCOC(=O)CCC(=O)CO)cc(O)c1OC | MDA-MB-231 | MTT | 3.57 µM |
| O=c1cc(-c2ccc(O)c(-c3c(O)cc(O)c4c(=O)cc(-c5ccc(O)cc5)oc34)c2)oc2cc(O)cc(O)c12 | HepG 2.2.15 cells | MTT | <30 µg/mL |
| CSc1nc(N)cc(OCCOCP(=O)(O)O)n1 | L1210 | - | <10 µM |
| O=C(COCC(=O)N/N=C/c1cccc([N+](=O)[O-])c1)N/N=C/c1cccc([N+](=O)[O-])c1 | RAW 264.7 | MTT | 38.46 µM |
| Cc1cc([N+](=O)[O-])ccc1C(=O)N(C)C1N=C(c2ccccc2)c2ccccc2NC1=O | HEP-2 | - | 15.9 µM |
| CC1Oc2cc(O)c3c(=O)c4ccc(O)c(O)c4oc3c2C1(C)C | ASK (Atlantic salmon kidney) | sulforhodamine / absorbance | 27.57 µM |
| CC(C)(C)NC(=O)NC(=S)NC(=O)COc1ccc(Cl)cc1Cl | MDCK | MTS | >300 µM |
| Cc1cc(NS(=O)(=O)c2ccc(N3C(=O)CSC3c3ccc(Cl)cc3)cc2)no1 | MCF-7 | MTT | >100 µg/mL |
| O=C(CCCl)NN1CC[N+]2(CC1)CC[N+]1(CCN(NC(=O)CCCl)CC1)CC2 | L929 | - | >393.5 µg/mL |
| Nc1cc(SCCOCP(=O)(O)O)nc(N)n1 | L1210 | - | <10 µM |
| Nc1nc(=O)n([C@H]2O[C@@H](CO)C[C@H]2F)cc1I | PBM | - | >100 µM |
| O=C(/C=C/C=C/c1ccc(O)c(O)c1)[Se]c1ccccc1 | Li-7 | WST | >100 µM |
| C[C@H](Cn1cnc2c(N)ncnc21)OCP(=O)(O)O | P3HR-1 | - | >100 µg/mL |
| Cc1cc(N2CC[N+](C)(C)CC2)c([N+](=O)[O-])c(N2CC[N+](C)(C)CC2)c1 | K562 | - | >322.9 µg/mL |
| Cc1cc(NS(=O)(=O)c2ccc(N3C(=O)CSC3c3ccc(C(F)(F)F)cc3)cc2)no1 | MCF-7 | MTT | >100 µg/mL |
| Cc1nc(C2CCCCCC2)c([N+](=O)[O-])c(N2CC[N+]3(CC2)CC[N+]2(CCN(c4nc(C)nc(C5CCCCCC5)c4[N+](=O)[O-])CC2)CC3)n1 | K562 | - | >261.2 µg/mL |
| C[C@H]1[C@H](O)C(=O)CC2[C@]3(C)CC[C@@]4(C)C5CC(C)(C)CC[C@]5(C)CC[C@]4(C)C3CC[C@@]21C | HT-29 | sulforhodamine / absorbance | >50 µM |
| O=C(NC(=S)Nc1nc(Cl)cc(Cl)n1)c1ccc(-c2ccc([N+](=O)[O-])cc2)o1 | MDCK | MTS | >300 µM |
| CCOC(=O)Cc1cc(O)cc2oc(-c3ccc(O)cc3)cc(=O)c12 | HepG 2.2.15 cells | MTT | >1020 µg/mL |
| C[C@H]1c2ccoc2C[C@H]2[C@H]1[C@@H](O)[C@@H](OC(=O)/C=C/c1ccccc1)[C@@]1(O)C(C)(C)CCC[C@]21C | BC | - | 1.4 µg/mL |
| CSc1nc(Cl)c([N+](=O)[O-])c(N2CC[N+]3(CC2)CC[N+]2(CCN(c4nc(SC)nc(Cl)c4[N+](=O)[O-])CC2)CC3)n1 | K562 | - | >263.7 µg/mL |
| CC(C)=CC[C@H]1C[C@@]2(C[C@H]3CCC(C)(C)C=C3C)C(=O)[C@](C(=O)c3ccccc3)(C(=O)C3=C2OC(C)(C)CC3)C1(C)C | P-388 | sulforhodamine / absorbance | 14.03 µM |
| O=C(CO)CCC(=O)OCCc1ccc2c(c1)OCO2 | MDA-MB-231 | MTT | 6.92 µM |
| COc1cc(O)cc2oc3cc(O)c(O)cc3c(=O)c12 | ASK (Atlantic salmon kidney) | sulforhodamine / absorbance | >50 µM |
| CC(C)C(=O)NC1NC(c2ccccc2)(c2cccc(Cl)c2)c2ccccc2NC1=O | HEP-2 | - | 6 µM |
| COc1cc(OC)nc(NC(=O)NC(=O)c2c(F)cccc2F)n1 | MDCK | MTS | >300 µM |
| CN(C)c1cc(=O)n(CCOCP(=O)(O)O)c(N)n1 | HeLa S3 | - | <10 µM |
| O=C(/C=C/c1ccc(O)c(O)c1)[Se]c1ccccc1 | Li-7 | WST | >100 µM |
| Nc1ncnc2c1ncn2[C@@H]1O[C@@H](CO)CC1F | PBM | - | >100 µM |
| O=c1c2cc(O)ccc2oc2cc(O)cc(O)c12 | HT-29 | sulforhodamine / absorbance | >50 µM |
| C=CCNc1ncnc2c1ncn2C[C@@H](C)OCP(=O)(O)O | P3HR-1 | - | 22 µg/mL |
| C[C@@H]1O[C@@H](O[C@@H]2[C@@H](O)[C@H](OCCc3ccc(O)c(O)c3)O[C@H](COC(=O)/C=C/c3ccc(O)c(O)c3)[C@H]2O)[C@H](O)[C@H](O)[C@H]1O | HL-60 | MTT | 11.19 µM |
| Nc1[nH]n2c(=O)cc(CN3CC[N+]4(CC3)CC[N+]3(CCN(Cc5cc(=O)n6[nH]c(N)c([N+](=O)[O-])c6n5)CC3)CC4)nc2c1[N+](=O)[O-] | K562 | - | >70.3 µg/mL |
| COc1cccc(C2=NC(NC(=O)c3ccccc3OC)C(=O)Nc3ccccc32)c1 | HEP-2 | - | 2 µM |
| C[N+]1(C)CCN(c2cccc(N3CC[N+](C)(C)CC3)c2[N+](=O)[O-])CC1 | GMK | - | >330.4 µg/mL |
| COc1cc(OC)n2sc(=NC(=O)c3cccnc3Cl)nc2n1 | MDCK | MTS | >300 µM |
| CC(C)(C)CC(C)(C)c1ccc(OCCOP(=O)([O-])OCC[N+](C)(C)Cc2ccccc2)cc1 | HUVEC | MTT | >100 µM |
| Cc1nc(N2CC[N+]3(CC2)CC[N+]2(CCN(c4nc(C)nc5c4no[n+]5[O-])CC2)CC3)c2c(no[n+]2[O-])n1 | GMK | - | >837.1 µg/mL |
| Cc1cn([C@H]2O[C@@H](CO)C[C@H]2F)c(=O)[nH]c1=O | PBM | - | >100 µM |
| O=C(COCC(=O)N/N=C/c1ccc(OCc2ccccc2)cc1)N/N=C/c1ccc(OCc2ccccc2)cc1 | RAW 264.7 | MTT | 31.56 µM |

An empty or dashed field is not shown. Rows are shuffled and stem from different studies.